Results of unrelated studies side by side (data: NIAID ChemDB).

Common to all: whole-cell or culture tests; agent: Candida kefyr

a–b is a range or a potency band. A number after MIC or MFC names an inhibition level or a share of isolates. An empty or dashed field is not shown. Neighbouring rows are from separate reports.

compound,strain,read by,read-out,value
O=c1[nH]nc(-c2ccccc2)n1CCCCCCn1c(-c2ccccc2)n[nH]c1=O,,,MIC,7.5 µg/mL
O=C(CCn1ccnc1)c1cccc(C(O)c2ccc(Br)cc2)c1,RTCC 1074,broth dilution,MIC,64 µg/mL
Cn1cccc1CC(=O)NNC(=O)NCCCCCCNC(=O)NNC(=O)Cc1cccn1C,,,MIC,7.5 µg/mL
CCCCN(Cc1cn(Cc2ccccc2C#N)nn1)CC(O)(Cn1cncn1)c1ccc(F)cc1F,,,MIC80,0.0625 µg/mL
C[C@@H](c1ncncc1F)[C@](O)(Cn1cncn1)c1ccc(F)cc1F,,,MIC50,0.008–0.015 µg/mL
CCOc1ccc2nc3cc(N=C4NC(=O)/C(=C\C=C\c5ccc([N+](=O)[O-])o5)S4)ccc3c(N)c2c1,ATCC 8614,broth dilution,MIC,666 µg/mL
O=C1c2ccccc2CC1Cn1ccnc1,RTCC 1019,broth dilution,MIC,64 µg/mL
CCCCN(Cc1cn(Cc2ccc(Br)cc2)nn1)CC(O)(Cn1cncn1)c1ccc(F)cc1F,,,MIC80,>64 µg/mL
O=C(CCn1ccnc1)c1ccc2ccccc2c1,RTCC 1019,broth dilution,MIC,16 µg/mL
Cn1cccc1-c1n[nH]c(=O)n1CCCCCCn1c(-c2cccn2C)n[nH]c1=O,,,MIC,7.5 µg/mL
CCCCN(Cc1cn(Cc2ccc(Cl)cc2)nn1)CC(O)(Cn1cncn1)c1ccc(F)cc1F,,,MIC80,0.0039 µg/mL
Cc1ccc(C(O)c2cccc(C(O)CCn3ccnc3)c2)cc1,RTCC 1074,broth dilution,MIC,>64 µg/mL
CCCCN(Cc1cn(Cc2ccc(C)cc2)nn1)CC(O)(Cn1cncn1)c1ccc(F)cc1F,,,MIC80,0.25 µg/mL
CCC(C)CC(C)CCCCCCCCC(=O)N[C@H]1C[C@@H](O)[C@H](NCCN)NC(=O)[C@@H]2[C@@H](O)CCN2C(=O)[C@H]([C@H](O)CCN)NC(=O)[C@H]([C@H](O)[C@@H](O)c2ccc(O)cc2)NC(=O)[C@@H]2C[C@@H](O)CN2C(=O)[C@H]([C@@H](C)O)NC1=O,,,MIC50,0.008–0.12 µg/mL
CCCCN(Cc1cn(Cc2ccccc2F)nn1)CC(O)(Cn1cncn1)c1ccc(F)cc1F,,,MIC80,1 µg/mL
Cc1ccc(C(O)c2cccc(C(=O)CCn3ccnc3)c2)cc1,RTCC 1074,broth dilution,MIC,>64 µg/mL

2 of the rows above, restated:

compound	strain	read by	read-out	value
CCCCN(Cc1cn(Cc2ccc(Cl)cc2)nn1)CC(O)(Cn1cncn1)c1ccc(F)cc1F			MIC80	0.0039 µg/mL
O=C(CCn1ccnc1)c1cccc(C(O)c2ccc(Br)cc2)c1	RTCC 1074	broth dilution	MIC	64 µg/mL